Data source: PubChem BioAssay AID504761 (Drosophila RNAi Screening Center, 2011)
Purpose: 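Genome-wide fly cell screen for genes dengue virus requires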 (primary screen). Cells: D.Mel-2 cells from Drosophila. Reagent: long dsRNA against Drosophila genes. Conditions: infection with dengue virus type 2; dose and infection time not stated. Detection: 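Per well on two replicate plates, imaging gave the percent of cells positive for viral envelope protein, ranked by infection, and a nuclear count of cells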. Scale: infection score: higher = more virus-infected cells; cell count: higher = more cells in the well. Call rule: 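Very low infection ranking in both replicate wells (chance probability at most 0.065), then a retest showing infection dropped 1.5-fold or more at p below 0.05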. Calls: active = confirmed: knock-down lowers infection; inactive = not picked or not confirmed.
In all, the deposit lists about 22,000 reagents; this is an unselected part of those that have a named target and a result. Of all reagents, 116 (0.52%) are marked active. 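Calls depend on retest data that are not deposited; infection was ranked per plate without normalising between plates; the unit of the infection score is not given.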 Raw values are not corrected between plates. Unmarked entries are inactive. Not stated in the record: the amount of reagent, the time to read-out.

infection score, replicate 1 | infection score, replicate 2 | cell count, replicate 1 | cell count, replicate 2 | Gene | amplicon
3.95 | 15.5 | 6679 | 6501 | CG17734 | DRSC15256
11.3 | 20 | 3308 | 3823 | CG17734 | DRSC29210
12.9 | 21.4 | 6751 | 7283 | CG4408 | DRSC15574
13.7 | 13.2 | 6089 | 6481 | CG11158 | DRSC19389
1.51 | 1.83 | 7267 | 6930 | Bub1 (Bub1 kinase) | DRSC23158
9.08 | 12.5 | 6144 | 6798 | Bub1 (Bub1 kinase) | DRSC27436
3.08 | 2.93 | 6536 | 6146 | sphinx1 | DRSC10993
3.87 | 3.3 | 6053 | 6144 | sphinx1 | DRSC24818
19.6 | 1.29 | 3255 | 4729 | Ae2 (Anion exchanger 2) | DRSC08997
6.22 | 7.18 | 6352 | 6253 | Ae2 (Anion exchanger 2) | DRSC10969
1.83 | 8.67 | 6705 | 6423 | CG12341 | DRSC06133
1.29 | 4.28 | 6574 | 6589 | CG17764 | DRSC23055
3.4 | 5.93 | 5407 | 1637 | lncRNA:CR32368 (long non-coding RNA:CR32368) | DRSC08899
3.41 | 6.55 | 6425 | 6897 | lncRNA:CR32368 (long non-coding RNA:CR32368) | DRSC25473
3.23 | 2.53 | 6590 | 7063 | CG31933 | DRSC00457
1.15 | 2.34 | 6170 | 6756 | CG11313 | DRSC14295
1.96 | 1.51 | 560 | 6809 | CG32192 | DRSC21760
4.96 | 13.8 | 6915 | 6249 | CG32192 | DRSC26771
2.9 | 1.37 | 5898 | 6954 | Cp16 (Chorion protein 16) | DRSC11119
5.75 | 1.94 | 6195 | 5713 | Cp16 (Chorion protein 16) | DRSC25549
2.1 | 2.53 | 6518 | 6731 | Fak (Focal adhesion kinase) | DRSC07426
2 | 1.79 | 6402 | 6696 | Fak (Focal adhesion kinase) | DRSC26626
1.39 | 5.38 | 5985 | 6563 | CG14839 | DRSC14963
14 | 2.38 | 5772 | 6313 | CG14839 | DRSC27307
3.58 | 5.22 | 6229 | 6069 | PolQ (DNA polymerase theta) | DRSC17006
3.5 | 3.3 | 6912 | 6945 | Npc1a (Niemann-Pick type C-1a) | DRSC03378
7.42 | 5.64 | 6157 | 5598 | CG12661 | DRSC17864
19.6 | 5.46 | 5457 | 861 | CG12661 | DRSC29244
29.3 | 31.7 | 5398 | 6515 | Sol1 | DRSC15263
9.42 | 31.4 | 6840 | 5470 | Sol1 | DRSC15271
9.63 | 26.6 | 6674 | 6465 | Sol1 | DRSC15681
4.45 | 7.21 | 6915 | 6398 | Ku80 | DRSC02699
2.63 | 5.19 | 6312 | 6128 | Ku80 | DRSC26861
16 | 20.7 | 5571 | 5777 | hay (haywire) | DRSC11354
7.13 | 15.7 | 6139 | 1201 | CG2201 | DRSC03721
8.68 | 11.4 | 5517 | 4724 | mRpL2 (mitochondrial ribosomal protein L2) | DRSC10896
3.33 | 0.96 | 6305 | 6476 | Osi18 (Osiris 18) | DRSC12181
2.06 | 3.04 | 6421 | 6645 | Acp26Aa (Accessory gland protein 26Aa) | DRSC01855
4.15 | 6.6 | 6648 | 6626 | apolpp (apolipophorin) | DRSC17216
8.38 | 8.3 | 6002 | 6328 | PRL-1 (PRL-1 phosphatase) | DRSC03393
7.59 | 15.2 | 5932 | 6590 | PRL-1 (PRL-1 phosphatase) | DRSC27332
5.81 | 2.24 | 3184 | 3120 | Ubc7 (Ubiquitin conjugating enzyme 7) | DRSC20299
2.79 (active) | 1.98 | 6881 | 6916 | brp (bruchpilot) | DRSC06245
4.85 | 7.73 | 6583 | 6452 | brp (bruchpilot) | DRSC06246
3.32 | 8.33 | 6894 | 6534 | brp (bruchpilot) | DRSC06801
10.2 | 24.4 | 6368 | 5562 | brp (bruchpilot) | DRSC21893
28.9 | 13.8 | 3935 | 2685 | brp (bruchpilot) | DRSC29170
17.6 | 8.62 | 6373 | 6112 | brp (bruchpilot) | DRSC29721
13.4 | 15.3 | 6228 | 6092 | Vmat (Vesicular monoamine transporter) | DRSC06961
12 | 32 | 6314 | 5637 | Vmat (Vesicular monoamine transporter) | DRSC06962
2.92 | 4.89 | 6611 | 5892 | Vmat (Vesicular monoamine transporter) | DRSC22223
3.14 | 2.99 | 5959 | 5946 | BobA | DRSC09889
6.31 | 12.2 | 6327 | 6532 | Nufip | DRSC10397
– | – | 343 | 413 | CG7755 | DRSC07040
0.11 | 0.16 | 6302 | 6351 | CG32547 | DRSC19263
5.96 | 6.2 | 6347 | 6161 | CG32547 | DRSC19474
4.94 | 2.98 | 5769 | 5714 | CG33258 | DRSC09415
2.28 | 0.91 | 6013 | 6047 | CG33258 | DRSC23590

Active calls (from the list above):
infection score, replicate 1 | infection score, replicate 2 | cell count, replicate 1 | cell count, replicate 2 | Gene | amplicon
2.79 (active) | 1.98 | 6881 | 6916 | brp (bruchpilot) | DRSC06245
